# Article PMC11952088 (Science Advances, 2025)
# Target: SARS-CoV-2 XBB.1.5 RBD (SARS-CoV-2, Omicron XBB.1.5, strain)
Binder,Kd [nM],koff [s⁻¹],kon [M⁻¹ s⁻¹]
"AZD3152 (antibody, V domains shown) VH: EVQLVESGGGLVQPGRSLRLSCAASGFPFDDYAIHWVRLAPGKGLEWVSSISWDSGSIGYADSVKGRFTISRDNAKNSLYLQMNSLRAEDTALYYCAKGAFPGYSSGWYYGLEVWGQGTTVTVSS VL: QSVVTQPPSASGSLGQSVTISCTGTSSDVGGYNYVSWYQQHPGKAPKLMIFEVSKRPSGVPDRFSGSKSGNTASLTVSGLQAEDEADYYCSSYAGNKGVFGGGTKLTVL",2.01,0.000944,469000
"3152-1142 (antibody, V domains shown) VH: EVQLVESGGGLVQPGRSLRLSCAASGFPFDDYAIHWVRLAPGKGLEWVSSISWDSGEIGYADSVKGRFTISRDNAKNSLYLQMNSLRAEDTALYYCAKGEFPGYSSGWYYGLEVWGQGTTVTVSS VL: QSVVTQPPSASGSLGQSVTISCTGTSSDVGGYDYVSWYQQHPGKAPKLMIFEVSQRPSGVPDRFSGSKSGNTASLTVSGLQAEDEADYYCSSYAHNKGVFGGGTKLTVL",0.0968,9.53e-05,985000
